Reference: PubChem BioAssay AID743269 (The Scripps Research Institute Molecular Screening Center, 2014)
The list shows a part of the results, in another mix than the full data. The source made the active and inactive calls.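 Rule for the calls: active = inhibition above the screen-wide mean plus 3 SD (cut at about 13% in these data); inactive = the rest.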

system: HIV-1 integrase (with human LEDGF/p75); assay: blockers of LEDGF/p75-dependent integrase strand transfer – biochemical, TR-FRET, high throughput, primary screen (AID 743269); conditions: TR-FRET IN-LEDGF/p75 DNA integration, Eu/Cy5; at 3.7 µM; active compounds read high;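 note: signal is the Cy5 over europium emission ratio at 671 and 618 nm; 0% = plate median of compound wells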

Structure (SMILES)	inhibition
O=[N+]([O-])c1cc([N+](=O)[O-])c(CCNc2ccccc2)c([N+](=O)[O-])c1	inactive: -4.84%
Nc1ccc([As](=O)(O)c2ccc(N)cc2)cc1	inactive: 0.45%
C[N+]1=C2C=CC=CC=C2SC12C([N+](=O)[O-])=CC([N+](=O)[O-])=C[C-]2[N+](=O)[O-] (centres undefined)	inactive: 3.87%
CCN(/C(=N/P(=O)(N1CCOCC1)N1CCOCC1)N1CCOCC1)c1ccc(OC)cc1	inactive: 4.36%
CC(C)=N/N=C(\N)N[N+](=O)[O-]	inactive: -0.98%
CC(C)c1nc(Nc2ccccc2)n(P(=O)(N(C)C)N(C)C)n1	inactive: 1.59%
CN(C)C(=O)OCCc1n(C)cc[n+]1C	inactive: 1.05%
c1cc(-c2nn[nH]n2)ccc1-c1nn[nH]n1	inactive: -2.95%
CC1CCN(C(=O)Oc2c(Cl)cc(Cl)c3cccnc23)CC1	inactive: -2%
O=P1(N(CCCl)CCCl)OCCCS1 (centres undefined)	inactive: -4.25%
O=C(Nc1cc([As](=O)(O)O)ccc1O)c1ccccc1	inactive: 8.83%
CC(C)(C)C(=O)NC(Sc1ccncn1)C(Cl)(Cl)Cl (centres undefined)	inactive: 1.94%
O=[N+]([O-])c1ncn(CCn2ncnc2[N+](=O)[O-])n1	inactive: -1.62%
O=[N+]([O-])c1cccc(NC2=NCC(CBr)S2)c1 (centres undefined)	inactive: 4.14%
COC(=O)C1(C)COP(=O)(Nc2ccccc2)OC1 (centres undefined)	inactive: -7.2%
O=C(O)CNc1ccc([As](=O)(O)O)cc1	inactive: -4.79%
Nc1ccc(CCCCOc2ccccc2)cc1	inactive: -2.12%
COc1ccc(N)c([N+](=O)[O-])c1[N+](=O)[O-]	inactive: -1.3%
O=P(Nc1ccccn1)(c1ccc(Br)cc1)c1ccc(Br)cc1	inactive: -2.34%
CN(C)C1(CNC(=O)c2ccc(Cl)c(S(N)(=O)=O)c2)CCCCC1	inactive: -0.07%
O=P(Nc1nc2ccccc2s1)(c1ccccc1)c1ccccc1	inactive: 1.68%
C[C@H]1OP(=O)(Oc2ccccc2)[C@H](O)[C@H](O)[C@H]1N=[N+]=[N-] (some centres undefined)	inactive: -1.43%

Structure (SMILES)	inhibition
O=[N+]([O-])c1ncn(CCn2cnc([N+](=O)[O-])n2)n1	inactive: -5.07%
CC(=O)NC(SC(=S)N(C)C)C(Cl)(Cl)Cl (centres undefined)	inactive: 0.64%
O=[As](O)(c1ccccc1)c1ccc(O)cc1	inactive: 4.4%
C/C(N)=N\P(=O)(OCc1ccccc1)OCc1ccccc1	inactive: 5.78%
Nc1ccc([As](=O)(O)c2ccc([N+](=O)[O-])cc2)cc1	inactive: 2.68%
C(Cc1nn[nH]n1)Cc1nn[nH]n1	inactive: 1.78%
O=C(OC1CN2CCC1CC2)c1cccc(Cl)c1 (centres undefined)	inactive: -0.39%
CC(C)C(=O)NC(Sc1ccccc1)C(Cl)(Cl)Cl (centres undefined)	inactive: 2.33%
O=P(Nc1nccs1)(c1ccccc1)c1ccccc1	inactive: -0.17%
c1nnnn1CCn1cnnn1	inactive: -1%
O=P1(Nc2nc3ccc(Cl)cc3s2)COc2ccccc2O1 (centres undefined)	inactive: 2.65%
CCOc1ccc(C2=NCC(CBr)S2)cc1 (centres undefined)	inactive: 1.6%
CCc1cc(O)c([N+](=O)[O-])c(C)c1[N+](=O)[O-]	inactive: 1.95%
CC(C)(C)C(=O)NC(Sc1ccccc1)C(Cl)(Cl)Cl (centres undefined)	inactive: 0.8%
N#C/C(=C\c1ccc(N(CCBr)CCBr)cc1)C(N)=O	inactive: 2.16%
CC(=O)c1ccc(N2CC2c2ccncc2)cc1 (centres undefined)	inactive: -0.66%
COC(=O)C1(C)COP(=O)(NCc2ccccc2)OC1 (centres undefined)	inactive: -5.35%
Cc1ccccc1CN(C)C(=O)COC(=O)C(O)(c1ccccc1)c1ccccc1	inactive: 3.69%
C[C@@H]1C=CCP(=O)(Oc2ccccc2)O1 (some centres undefined)	inactive: 1.52%
C[C@H]1OP(=O)(Oc2ccccc2)C[C@@H]2O[C@@H]21 (some centres undefined)	inactive: 1.8%
CC(=O)Nc1ccc([As](=O)(O)O)c(O)c1	inactive: -0.15%
CC(=O)Nc1ccc(Oc2c([N+](=O)[O-])cc([N+](=O)[O-])cc2[N+](=O)[O-])cc1	inactive: -4.04%

Structure (SMILES)	inhibition
CCNC(=S)/N=C(\N)N[N+](=O)[O-]	inactive: 1.33%
O=C(NC1CCS(=O)(=O)C1)NP(=S)(Oc1ccccc1)Oc1ccccc1 (centres undefined)	inactive: 0.92%
c1ccc(-c2nn[nH]n2)c(-c2nn[nH]n2)c1	inactive: 3.6%
Cc1ccc(NP(=O)(Oc2cccc(C)c2)Oc2cccc(C)c2)nc1	inactive: 1.87%
O=P1(N(CCCl)CCCl)OCCC2CCCCN21 (centres undefined)	inactive: 0.87%
COC(=O)c1cc2c(s1)N=C(c1ccccc1)N(C)P2(=O)N1CCOCC1 (centres undefined)	inactive: -1.15%
Cc1ccc(OP(=O)(Nc2ccccn2)Oc2ccc(C)cc2)cc1	inactive: -2.52%
CC(=O)NC(SC(=S)N(CC(C)C)CC(C)C)C(Cl)(Cl)Cl (centres undefined)	inactive: -0.12%
O=C(OC1CN2CCC1CC2)c1ccccc1 (centres undefined)	inactive: -2.34%
CCC(=O)N1C2C3N(C(=O)CC)C1C1N(C(=O)CC)C(C(N1C(=O)CC)N3C(=O)CC)N2C(=O)CC	inactive: -1.61%
Cc1ccccc1OP(=O)(Nc1ccccn1)Oc1ccccc1C	inactive: -5.42%
CC(NC(=O)COC(=O)C(O)(c1ccccc1)c1ccccc1)c1ccccc1 (centres undefined)	inactive: 1.66%
CN(C)C(=O)Oc1noc2ccccc12	inactive: 1.37%
O=c1c2cc([N+](=O)[O-])ccc2[nH]c2c([N+](=O)[O-])cc([N+](=O)[O-])cc12	inactive: 4.92%
CCOP1(=S)c2c(C)nn(CCC#N)c2N=C(c2ccccc2F)N1C (centres undefined)	inactive: -3.01%
O=P(Nc1nccs1)(Oc1ccccc1)Oc1ccccc1	inactive: -0.75%
Nc1ccccc1[As](=O)(O)c1ccccc1	inactive: 5.26%
O=C(O)COc1ccc([As](=O)(O)O)cc1[N+](=O)[O-]	inactive: 12.2%
NC(=O)Nc1ccc([As](=O)(O)O)cc1	inactive: -1.69%
CN(C)C(=O)c1cc([N+](=O)[O-])cc2c1-c1c(cc([N+](=O)[O-])cc1[N+](=O)[O-])C2=O	inactive: 0.51%
